Reference: US20140271917A1, “CONTROLLED AND PREDICTABLE 2-PATH-WAY DECOMPOSITION OF THERMODYNAMICALLY DOUBLE UNSTABLE OXIDISING AGENTS” (F_OXYDE GMBH, priority 2013, published 2014)

Assay: immersion testing of a dried protein/carbohydrate sample (flexural modulus, swelling)
Conditions: 60 min exposure time, ambient temperature

In the case of `[Na+].[OH-]` [NaOH], the “flexural modulus, reference substance NaOH at equivalent pH” value (shortened to “flexural modulus”) (pH equivalent to Example 1) was 0.04, the “swelling in percent of dry material, reference substance NaOH at equivalent pH” value (“swelling in percent of dry material” below) (pH equivalent to Example 1) was 18% and the “flexural modulus” value (pH equivalent to Example 2) was 0.06. The “swelling in percent of dry material” value (pH equivalent to Example 2) was 21%, the “flexural modulus” value (pH equivalent to Example 3) was 0.1 and the “swelling in percent of dry material” value (pH equivalent to Example 3) was 25%.
